Results of unrelated studies side by side (data: NIAID ChemDB).

All rows: enzyme or target tests; agent: HIV-1; target: Reverse transcriptase; read-out: inhibition

An empty or dashed field is not shown. a–b is a range or a potency band. Lines come from different laboratories, so protocols vary. Inhibition is in % at the dose shown (toxicity tests: loss of growth or viability).

structure	method	conditions	tested at	result
CC1=CCC[C@H]2[C@](C)(CC3=C(O)C(=O)C(=O)C=C3O)[C@@H](C)CC[C@]12C			50 µg/mL	41%
O=C(Nc1ccc(Cl)cc1)Nc1ccc(Nc2ccnc3cc(Cl)ccc23)cc1	nucleotide incorporation		100 µM	38%
Nc1ncnc2c1ncn2C1OC(COP(=O)(O)OC2C(O)C(COP(=O)(O)OC3C(O)C(CO)OC3n3cnc4c(N)ncnc43)OC2n2cnc3c(N)ncnc32)C(F)C1Cl			300 µM	99.7%
Cc1cc(C)c2c(c1)N(CC1CC1)C(=O)c1ccnnc1O2	ELISA		330 µM	80%
CCN1C(=O)c2ccnnc2N(CC)c2ccc(C)cc21			330 µM	85%
O=c1[nH]c(SCc2cn[nH]n2)nc(-c2cccc([N+](=O)[O-])c2)c1Cl	RT activity / absorbance		100 µg/mL	65.72%
COc1c(C)c(O)c(C(C)=O)c(O)c1Cc1c(O)c(CC=C(C)C)c(O)c(C(C)=O)c1O	RT activity		10 µg/mL	67%
COc1cc(Cc2nccc3cc(OC)c(OC)cc23)c(C(C)=O)cc1OC	nucleotide incorporation		100 µM	97%
S=C(NCCc1ccccn1)Nc1cnccn1			330 µM	77%
COC(=O)c1cc(O)c(O)c(O)c1	ELISA		100 µM	55.6%
O=C(c1ccccc1)N1CCN(C(=O)c2ccc(Nc3ccnc4cc(C(F)(F)F)ccc34)cc2)CC1	nucleotide incorporation		100 µM	22%
CCOC(=O)CN1C(=O)c2ccnnc2Oc2ccc(C)cc21	ELISA		330 µM	51%
COc1cc2oc(-c3cc(O)c(OC)c(O)c3)c(OC)c(=O)c2c(O)c1OC			200 µg/mL	16.2%
O=C(O)c1cn([C@@H]2O[C@H](CO)[C@@H](O)[C@H]2O)c2cc(Br)ccc2c1=O			100 µM	10%
CCCN1C(=O)c2cc(Cl)nnc2N(C2CC2)c2ccccc21			330 µM	93%
O=C(NCCc1ccccc1)Nc1ccn[nH]1	nucleotide incorporation		1 µg/mL	8%
O=C(O)CCC(CCC(=O)O)(CCC(=O)O)NC(=O)CCC(CCC(=O)NC(CCC(=O)O)(CCC(=O)O)CCC(=O)O)(CCC(=O)NC(CCC(=O)O)(CCC(=O)O)CCC(=O)O)NC(=O)CCCOC(=O)C1(C(=O)OCCCC(=O)NC(CCC(=O)NC(CCC(=O)O)(CCC(=O)O)CCC(=O)O)(CCC(=O)NC(CCC(=O)O)(CCC(=O)O)CCC(=O)O)CCC(=O)NC(CCC(=O)O)(CCC(=O)O)CCC(=O)O)C2c3cc4c5c6c3-c3c(cc7c8c3C6C3c6c-5c(cc5ccc9cc(c-8c3c9c65)C7)C4)C21			2.1 µM	90%
CC(NC(=S)Nc1nc2ccccc2s1)c1ccccc1	ELISA / absorbance		250 µM	97.5%
CSc1ncc(C(N)=O)c(Nc2ccc3cn[nH]c3c2)n1	ELISA		0.1 µg/mL	48%
CCCCCCCCCCCCCCCC(=O)OCC(COC(=O)CCC(=O)OC1CC(COP(=O)(O)OC2CC(COP(=O)(O)OC3CC(CO)OC3n3cnc4c(N)ncnc43)OC2n2cnc3c(N)ncnc32)OC1n1cnc2c(N)ncnc21)OC(=O)CCCCCCCCCCCCCCC			300 µM	78%
O=C(O)[C@H]1O[C@@H](Oc2cc3oc(-c4ccc(O)cc4)cc(=O)c3c(O)c2O)[C@H](O)[C@@H](O)[C@@H]1O	ELISA		433 µM	48%
CCCCN1C(=O)c2cc(Cl)nnc2N(C2CC2)c2ccccc21			330 µM	11%
CCOc1cc(-c2nccc3cc(OC)c(OC)cc23)cc(OCC)c1OCC	RT activity	4 d	1 µM	13.4%
COc1ccc2c(c1)N(CC(C)C)C(=O)c1ccnnc1O2	ELISA		330 µM	40%
CCOC(=O)C(=O)Nc1nccc2ccccc12	nucleotide incorporation		100 µM	28%
Nc1ncnc2c1ncn2[C@@H]1O[C@H](COP(=O)(O)O[C@@H]2[C@H](O)[C@@H](COP(=O)(O)O[C@@H]3[C@H](O)[C@@H](CO)O[C@H]3n3cnc4c(N)ncnc43)O[C@H]2n2cnc3c(N)ncnc32)[C@@H](O)[C@H]1O			300 µM	33%
Cc1nnc(NC(=O)NCCc2ccccc2)s1	nucleotide incorporation		10 µg/mL	18%
C=C1C(=O)O[C@@H]2C[C@@H]3[C@]4(CC[C@]5(C)[C@@H]([C@H](C)CC/C=C(\C)C=O)CC[C@@]35C)C[C@]4(CCC(=O)O)[C@H]12			200 µg/mL	99.9%
C=C1CC[C@@H](OC(=O)CCC(=O)OCC2CC(OP(=O)(O)OCC3CC(OP(=O)(O)OCC4CC(O)C(n5cnc6c(N)ncnc65)O4)C(n4cnc5c(N)ncnc54)O3)C(n3cnc4c(N)ncnc43)O2)C/C1=C/C=C1\CCC[C@]2(C)[C@@H]([C@@H](C)/C=C/[C@H](C)C(C)C)CC[C@@H]12			300 µM	14%
O=C(NCCc1ccccc1)Nc1nncs1	nucleotide incorporation		1 µg/mL	14%
CCCCCCCCCCCCCCCC(=O)NC1C(COP(=O)(O)OC2C(O)C(COP(=O)(O)OC3C(O)C(CO)OC3n3cnc4c(N)ncnc43)OC2n2cnc3c(N)ncnc32)OC(n2cnc3c(N)ncnc32)C1O			100 µM	0%
O=C(NCCc1ccccc1)Nc1nc(C(F)(F)F)cs1	nucleotide incorporation		0.1 µg/mL	63–68%
O=C(O)c1cn([C@@H]2O[C@H](CO)[C@@H](O)[C@H]2O)c2cc(Cl)ccc2c1=O			100 µM	10%
CCCCCCCCCCCCCCCC(=O)NC1C(COP(=O)(O)OC2C(O)C(COP(=O)(O)OC3CC(CO)OC3n3cnc4c(N)ncnc43)OC2n2cnc3c(N)ncnc32)OC(n2cnc3c(N)ncnc32)C1O			100 µM	78%
COc1cc(-c2cc(=O)c3c(O)c(OC)c(O)cc3o2)cc(O)c1OC			200 µg/mL	25.5%
COc1c(C)c(O)c(C(C)=O)c(O)c1Cc1c(O)c2c(c(C(C)=O)c1O)OC(C)(C)C=C2	RT activity		10 µg/mL	75%
O=C1NC(c2c[nH]c3ccc(O)cc23)=C/C1=C1\C(=O)NC2C=CC=CC12	RT activity / ELISA		500 µM	94.28%
CCN1C(=O)c2cc(Cl)nnc2Oc2ccc(C)cc21	ELISA		33 µM	2%
CCCCCCCCCCCCCCCC(=O)OCC(COC(=O)CCC(=O)OCC1CC(OP(=O)(O)OCC2CC(OP(=O)(O)OCC3CC(O)C(n4cnc5c(N)ncnc54)O3)C(n3cnc4c(N)ncnc43)O2)C(n2cnc3c(N)ncnc32)O1)OC(=O)CCCCCCCCCCCCCCC			300 µM	88%
O=C(NCCc1ccccc1)Nc1nc2ccccc2s1	nucleotide incorporation		1 µg/mL	36%
CCN1C(=O)c2ccnnc2N(CC)c2ccccc21			330 µM	91%
O=C(c1ccc(Nc2ccnc3cc(C(F)(F)F)ccc23)cc1)N1CCN(S(=O)(=O)c2ccc(Cl)cc2)CC1	nucleotide incorporation		100 µM	37%
S=C(NCCc1ccccn1)Nc1cccnn1			330 µM	99%
NOCc1c(F)cccc1Cl	nucleotide incorporation		0.16 µg/mL	0.4%
Cc1c(C)c2c(c(C)c1OC(=O)CCC(=O)OC1CC(COP(=O)(O)OC3CC(COP(=O)(O)OC4CC(CO)OC4n4cnc5c(N)ncnc54)OC3n3cnc4c(N)ncnc43)OC1n1cnc3c(N)ncnc31)CCC(C)(CCCC(C)CCCC(C)CCCC(C)C)O2			300 µM	70%

4 of the rows above, restated:

structure,method,conditions,tested at,result
CCN1C(=O)c2ccnnc2N(CC)c2ccc(C)cc21,,,330 µM,85%
O=c1[nH]c(SCc2cn[nH]n2)nc(-c2cccc([N+](=O)[O-])c2)c1Cl,RT activity / absorbance,,100 µg/mL,65.72%
O=C(O)[C@H]1O[C@@H](Oc2cc3oc(-c4ccc(O)cc4)cc(=O)c3c(O)c2O)[C@H](O)[C@@H](O)[C@@H]1O,ELISA,,433 µM,48%
CCCN1C(=O)c2cc(Cl)nnc2N(C2CC2)c2ccccc21,,,330 µM,93%